# According to the supplement of paper PMC8728848:
# Shown is part of a subset that was picked to be rich in the strongest signals.
# B1: FimH (Escherichia coli), P08191 (protein)
# chain: FACKTANGTAIPIGGGSANVYVNLAPVVNVGQNLVVDLSTQIFCHNDYPETITDYVTLQRGSAYGGVLSNFSGTVKYSGSSYPFPTTSETPRVVYNSRTDKPWPVALYLTPVSSAGGVAIKAGSLIAVLILRQTNNYNSDDFQFVWNIYANNDVVVPT
# How the values were obtained:
# Experiment in all cases: glycan array binding signal (z-score within array); higher = stronger binding
# Conditions in all cases: glycan notation: IUPAC condensed, linker removed
# [1] = target: Fuc(a1-2)Gal(b1-3)GlcNAc(b1-2)Man(a1-3)[Fuc(a1-2)Gal(b1-3)GlcNAc(b1-2)Man(a1-6)]Man(b1-4)GlcNAc(b1-4)[Fuc(a1-6)]GlcNAc
# [2] = target: Fuc(a1-2)Gal(b1-4)[Fuc(a1-3)]GlcNAc(b1-3)[Neu5Ac(a2-6)Gal(b1-4)GlcNAc(b1-6)]Gal(b1-4)Glc
# Fuc(a1-2)[Gal(a1-3)]Gal = target: Fuc(a1-2)[Gal(a1-3)]Gal
# [3] = target: Fuc(a1-2)[Gal(a1-3)]Gal(b1-4)GlcNAc(b1-3)GalNAc
# [4] = target: Fuc(a1-2)[GalNAc(a1-4)]Gal(b1-4)GlcNAc
# Gal(a1-2)Gal = target: Gal(a1-2)Gal
# [5] = target: Gal(a1-3)Gal(b1-3)GlcNAc(b1-6)GalNAc
# [6] = target: Gal(a1-4)Gal(b1-3)GlcNAc(b1-2)Man(a1-3)[Gal(a1-4)Gal(b1-3)GlcNAc(b1-2)Man(a1-6)]Man(b1-4)GlcNAc(b1-4)GlcNAc
# [7] = target: Gal(a1-4)Gal(b1-4)GlcNAc(b1-3)Gal(b1-4)Glc
# [8] = target: Gal(b1-3)GalNAc(b1-4)Gal(b1-4)Glc
# [9] = target: Gal(b1-3)[Fuc(a1-4)]GlcNAc(b1-3)Gal(b1-3)[Fuc(a1-4)]GlcNAc
# [10] = target: Gal(b1-3)[Fuc(a1-4)]GlcNAc(b1-3)Gal(b1-4)[Fuc(a1-3)]GlcNAc
# [11] = target: Gal(b1-4)GalNAc(b1-3)[Fuc(a1-2)]Gal(b1-4)GlcNAc
# [12] = target: Gal(b1-4)GlcNAc(b1-2)Man(a1-3)[Gal(b1-4)GlcNAc(b1-2)Man(a1-6)]Man(b1-4)GlcNAc(b1-4)[Fuc(a1-6)]GlcNAc
# [13] = target: Gal(b1-4)GlcNAc(b1-2)Man(a1-6)[Man(a1-3)]Man(b1-4)GlcNAc(b1-4)GlcNAc
# [14] = target: Gal(b1-4)GlcNAc(b1-3)Gal(b1-4)GlcNAc(b1-3)Gal(b1-4)GlcNAc(b1-3)Gal(b1-4)GlcNAc(b1-3)Gal(b1-4)GlcNAc(b1-2)[Gal(b1-4)GlcNAc(b1-3)Gal(b1-4)GlcNAc(b1-3)Gal(b1-4)GlcNAc(b1-3)Gal(b1-4)GlcNAc(b1-3)Gal(b1-4)GlcNAc(b1-6)]Man(a1-6)[Gal(b1-4)GlcNAc(b1-3)Gal(b1-4)GlcNAc(b1-3)Gal(b1-4)GlcNAc(b1-3)Gal(b1-4)GlcNAc(b1-3)Gal(b1-4)GlcNAc(b1-2)Man(a1-3)]Man(b1-4)GlcNAc(b1-4)[Fuc(a1-6)]GlcNAc
# [15] = target: Gal(b1-4)GlcNAc(b1-3)[GlcNAc(b1-6)]Gal(b1-4)GlcNAc
# [16] = target: Gal(b1-4)GlcNAc(b1-6)GalNAc
# Gal3S(b1-3)GalNAc = target: Gal3S(b1-3)GalNAc
# Gal4S6S(b1-4)GlcNAc = target: Gal4S6S(b1-4)GlcNAc
# Gal6S(b1-4)GlcNAc6S = target: Gal6S(b1-4)GlcNAc6S
# [17] = target: GalNAc(a1-3)GalNAc(b1-3)Gal(a1-4)Gal(b1-4)Glc
# [18] = target: GlcNAc(b1-4)[GlcNAc(b1-6)]GalNAc
# [19] = target: Kdn(a2-3)Gal(b1-4)[Fuc(a1-3)]GlcNAc
# [20] = target: Man(a1-2)Man(a1-2)Man(a1-6)[Man(a1-3)]Man
# [21] = target: Man(a1-2)Man(a1-3)[Man(a1-2)Man(a1-6)]Man(a1-6)[Man(a1-2)Man(a1-2)Man(a1-3)]Man
# [22] = target: Man(a1-2)Man(a1-3)[Man(a1-2)Man(a1-6)]Man(a1-6)[Man(a1-2)Man(a1-2)Man(a1-3)]Man(b1-4)GlcNAc(b1-4)GlcNAc
# [23] = target: Man(a1-2)Man(a1-6)[Man(a1-3)]Man(a1-6)[Man(a1-2)Man(a1-2)Man(a1-3)]Man
# [24] = target: Man(a1-2)Man(a1-6)[Man(a1-3)]Man(a1-6)[Man(a1-2)Man(a1-2)Man(a1-3)]Man(b1-4)GlcNAc(b1-4)GlcNAc
# Man(a1-3)[Man(a1-6)]Man = target: Man(a1-3)[Man(a1-6)]Man
# [25] = target: Man(a1-3)[Man(a1-6)]Man(a1-6)[Man(a1-2)Man(a1-3)]Man(b1-4)GlcNAc(b1-4)GlcNAc
# [26] = target: Man(a1-3)[Man(a1-6)]Man(a1-6)[Man(a1-3)]Man
# [27] = target: Man(a1-3)[Man(a1-6)]Man(a1-6)[Man(a1-3)]Man(b1-4)GlcNAc(b1-4)GlcNAc
# [28] = target: Man(a1-3)[Man(a1-6)]Man(b1-4)GlcNAc(b1-4)GlcNAc
# Man(a1-6)Man = target: Man(a1-6)Man
# [29] = target: Neu5Ac(a2-3)Gal(b1-3)[Fuc(a1-4)]GlcNAc(b1-3)Gal(b1-4)[Fuc(a1-3)]GlcNAc
# [30] = target: Neu5Ac(a2-3)Gal(b1-4)GlcNAc
# [31] = target: Neu5Ac(a2-3)Gal(b1-4)[Fuc(a1-3)]GlcNAc(b1-6)[Gal(b1-3)]GalNAc
# [32] = target: Neu5Ac(a2-3)[Neu5Ac(a2-6)]GalNAc
# [33] = target: Neu5Ac(a2-6)Gal(b1-4)GlcNAc(b1-2)Man(a1-3)Man(b1-4)GlcNAc(b1-4)GlcNAc
# [34] = target: Neu5Ac(a2-6)Gal(b1-4)GlcNAc(b1-2)Man(a1-6)[GlcNAc(b1-2)Man(a1-3)]Man(b1-4)GlcNAc(b1-4)GlcNAc
# [35] = target: Neu5Ac(a2-6)Gal(b1-4)GlcNAc(b1-2)Man(a1-6)[Man(a1-3)]Man(b1-4)GlcNAc(b1-4)GlcNAc
# [36] = target: Neu5Ac(a2-8)Neu5Ac(a2-3)Gal(b1-3)GalNAc(b1-4)[Neu5Ac(a2-3)]Gal(b1-4)Glc
# [37] = target: Neu5Gc(a2-3)Gal(b1-4)GlcNAc(b1-3)Gal(b1-4)GlcNAc(b1-2)Man(a1-3)[Neu5Gc(a2-3)Gal(b1-4)GlcNAc(b1-3)Gal(b1-4)GlcNAc(b1-2)Man(a1-6)]Man(b1-4)GlcNAc(b1-4)GlcNAc
binder,measurement,setting,value
B1,glycan array binding signal (z-score),[1],1.22
same,glycan array binding signal (z-score),[2],-0.289
same,glycan array binding signal (z-score),Fuc(a1-2)[Gal(a1-3)]Gal,-0.326
same,glycan array binding signal (z-score),[3],-0.263
same,glycan array binding signal (z-score),[4],-0.333
same,glycan array binding signal (z-score),Gal(a1-2)Gal,-0.312
same,glycan array binding signal (z-score),[5],-0.296
same,glycan array binding signal (z-score),[6],2.12
same,glycan array binding signal (z-score),[7],-0.296
same,glycan array binding signal (z-score),[8],-0.33
same,glycan array binding signal (z-score),[9],0.212
same,glycan array binding signal (z-score),[10],-0.274
same,glycan array binding signal (z-score),[11],-0.334
same,glycan array binding signal (z-score),[12],0.061
same,glycan array binding signal (z-score),[13],4.1
same,glycan array binding signal (z-score),[14],0.904
same,glycan array binding signal (z-score),[15],-0.333
same,glycan array binding signal (z-score),[16],-0.31
same,glycan array binding signal (z-score),Gal3S(b1-3)GalNAc,-0.332
same,glycan array binding signal (z-score),Gal4S6S(b1-4)GlcNAc,-0.331
same,glycan array binding signal (z-score),Gal6S(b1-4)GlcNAc6S,-0.33
same,glycan array binding signal (z-score),[17],-0.33
same,glycan array binding signal (z-score),[18],-0.333
same,glycan array binding signal (z-score),[19],-0.31
same,glycan array binding signal (z-score),[20],4.37
same,glycan array binding signal (z-score),[21],3.9
same,glycan array binding signal (z-score),[22],2.56
same,glycan array binding signal (z-score),[23],4.11
same,glycan array binding signal (z-score),[24],4.65
same,glycan array binding signal (z-score),Man(a1-3)[Man(a1-6)]Man,6.22
same,glycan array binding signal (z-score),[25],3.96
same,glycan array binding signal (z-score),[26],4.92
same,glycan array binding signal (z-score),[27],5.51
same,glycan array binding signal (z-score),[28],4.48
same,glycan array binding signal (z-score),Man(a1-6)Man,0.871
same,glycan array binding signal (z-score),[29],0.431
same,glycan array binding signal (z-score),[30],-0.327
same,glycan array binding signal (z-score),[31],-0.282
same,glycan array binding signal (z-score),[32],-0.33
same,glycan array binding signal (z-score),[33],-0.273
same,glycan array binding signal (z-score),[34],-0.12
same,glycan array binding signal (z-score),[35],5.83
same,glycan array binding signal (z-score),[36],-0.328
same,glycan array binding signal (z-score),[37],-0.165
